Values from PubChem BioAssay AID504761 (Drosophila RNAi Screening Center, 2011).
The screen tested about 22,000 reagents; this is a random part of those that have a named target and a result. Over the whole deposit, 116 (0.52%) were called active. 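Calls depend on retest data that are not deposited; infection was ranked per plate without normalising between plates; the unit of the infection score is not given.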 Raw values vary from plate to plate and are shown uncorrected. The numbers tell different reagents against one gene apart. A plus sign joins genes that one reagent is predicted to hit. The record does not give: the amount of reagent, the time to read-out.

Aim: 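Fly genes whose silencing reduces dengue virus type 2 infection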 (primary screen)
Cells: D.Mel-2 cells from Drosophila
Knock-down reagent: long dsRNA against Drosophila genes
Challenge: infection with dengue virus type 2; dose and infection time not stated
Measurement: 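Cells stained for dengue envelope protein and imaged; percent of infected cells per well on duplicate plates, ranked by infection, with stained nuclei counted for cell number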
Scale: infection score: higher = more virus-infected cells; cell count: higher = more cells in the well
Rule for the call: 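Very low infection ranking in both replicate wells (chance probability at most 0.065), then a retest showing infection dropped 1.5-fold or more at p below 0.05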
Calls: active = confirmed: knock-down lowers infection; inactive = not picked or not confirmed

| gene | dsRNA no. | infection score, replicate 1 | infection score, replicate 2 | cell count, replicate 1 | cell count, replicate 2 | Outcome |
| --- | --- | --- | --- | --- | --- | --- |
| CG13324 | 1 | 3.01 | 21.9 | 7073 | 5716 | inactive |
| CG7304 | 1 | 0.96 | 0.47 | 5540 | 5909 | inactive |
| CG7304 | 2 | 10.1 | 10.8 | 5208 | 5328 | inactive |
| sut2 | 1 | 31.9 | 12.3 | 4449 | 5836 | inactive |
| CG7227 | 1 | 4.72 | 4.16 | 6632 | 6448 | inactive |
| CG32278 + CG14963 | 1 | 3.6 | 11.1 | 6613 | 5709 | inactive |
| Z600 | 1 | 5.04 | 9.65 | 6247 | 6287 | inactive |
| disco-r | 1 | 10.5 | 1.41 | 6217 | 6456 | inactive |
| disco-r | 2 | 8.43 | 1.62 | 5777 | 6792 | inactive |
| dpn | 1 | 4.25 | 8.28 | 6712 | 6510 | inactive |
| dpn | 2 | 13.9 | 4.72 | 6217 | 6180 | inactive |
| CG42565 | 1 | 18.5 | 11.8 | 4405 | 3434 | inactive |
| CG13385 | 1 | 4.42 | 1.4 | 6408 | 6082 | inactive |
| TyrRS | 1 | 6.97 | 13.4 | 5965 | 5838 | inactive |
| TyrRS | 2 | 4.39 | 5.93 | 6328 | 6254 | inactive |
| Pvf2 | 1 | – | – | 437 | 364 | inactive |
| Pvf2 | 2 | 3.48 | – | 1722 | 431 | inactive |
| RtcB | 1 | 4.95 | 3.42 | 5518 | 6382 | inactive |
| pasha | 1 | 1.35 | 2.73 | 6215 | 6526 | inactive |
| pasha | 2 | 12.3 | 9.18 | 6890 | 6384 | inactive |
| tsg | 1 | 1.6 | 2.79 | 6013 | 6693 | inactive |
| tsg | 2 | 1.1 | 0.74 | 6705 | 6650 | inactive |
| Tango14 | 1 | 9.31 | 3.55 | 7057 | 6755 | inactive |
| Tango14 | 2 | 27.1 | 25.3 | 5948 | 5725 | inactive |
| Trpml + CG42638 | 1 | 6.26 | 4.94 | 6386 | 6198 | inactive |
| CG10909 | 1 | 2.01 | 5.74 | 6353 | 6759 | inactive |
| CG10019 | 1 | 2.67 | 4.31 | 7030 | 6524 | inactive |
| MCPH1 | 1 | 10.1 | 25.4 | 4984 | 5331 | inactive |
| MCPH1 | 2 | 11.1 | 14.4 | 6662 | 6822 | inactive |
| MCPH1 | 3 | 2.46 | 13.2 | 6372 | 5876 | inactive |
| MCPH1 | 4 | 0.36 | 10.2 | 281 | 3160 | inactive |
| CG31493 | 1 | 2.93 | 8.04 | 6036 | 6023 | inactive |
| kra | 1 | 7.93 | 16.4 | 6264 | 4328 | inactive |
| CG6901 | 1 | 7.72 | 15.1 | 6399 | 5579 | inactive |
| CG6901 | 2 | 2.04 | 10.3 | 6072 | 5987 | inactive |
| CG13427 | 1 | 2.26 | 1.24 | 5809 | 5975 | inactive |
| CG31689 | 1 | 3.25 | 2.99 | 6217 | 6261 | inactive |
| pHCl-2 | 1 | 1.22 | 2.54 | 737 | 7051 | inactive |
| CG8641 | 1 | 3.08 | 5.21 | 6013 | 6216 | inactive |
| CtIP | 1 | 3.07 | 1.11 | 6019 | 6149 | inactive |
| CtIP | 2 | 16.3 | 6.87 | 6643 | 1019 | inactive |
| CG10469 | 1 | 2.3 | 5.88 | 5870 | 4913 | inactive |
| CG10469 | 2 | 2.24 | 3.81 | 5978 | 6005 | inactive |
| fon | 1 | 17 | 18 | 6622 | 6451 | inactive |
| CG4328 | 1 | 0.79 | 2.24 | 6844 | 6837 | inactive |
| CG4328 | 2 | 18.6 | 13.8 | 4415 | 3309 | inactive |
| GstD10 | 1 | 5.94 | 5.42 | 6790 | 6811 | inactive |
| GstD10 | 2 | 1.76 | 0.79 | 6691 | 6351 | inactive |
| CG11555 | 1 | 6.45 | 10.3 | 5954 | 5855 | inactive |
| uri | 1 | 11.3 | 42.9 | 6580 | 4113 | inactive |
| uri | 2 | 5.89 | 6.07 | 6194 | 6576 | inactive |
| CG13893 | 1 | 0.72 | 3.02 | 6401 | 6149 | inactive |
| CG30156 | 1 | 1.84 | 0.67 | 6134 | 5979 | inactive |
| Rh3 | 1 | 4.65 | 6.23 | 6988 | 6616 | inactive |
| CG6813 | 1 | 2.86 | 4.72 | 6368 | 6226 | inactive |
| CG6418 | 1 | 10.1 | 22.9 | 4571 | 5088 | inactive |
| CG6418 | 2 | 4.66 | 2.2 | 6735 | 7144 | inactive |
| Nadsyn | 1 | 2.97 | 2.73 | 6626 | 7004 | inactive |

Reformatted: entries from further up.
{"gene": "pasha", "dsRNA no.": 2, "infection score, replicate 1": 12.3, "infection score, replicate 2": 9.18, "cell count, replicate 1": 6890, "cell count, replicate 2": 6384, "Outcome": "inactive"}
{"gene": "tsg", "dsRNA no.": 1, "infection score, replicate 1": 1.6, "infection score, replicate 2": 2.79, "cell count, replicate 1": 6013, "cell count, replicate 2": 6693, "Outcome": "inactive"}
{"gene": "tsg", "dsRNA no.": 2, "infection score, replicate 1": 1.1, "infection score, replicate 2": 0.74, "cell count, replicate 1": 6705, "cell count, replicate 2": 6650, "Outcome": "inactive"}
